Data as given in PubChem BioAssay AID624099 (ICCB-Longwood, 2012).

- Assay: 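Human genes that papillomavirus E2 requires to repress the HPV18 LCR promoter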 (primary screen)
- System: human C33A cervical carcinoma cells (HPV-negative) stably expressing BPV1 E2 and an HPV18 LCR luciferase reporter
- Reagents: siRNA pool against human genes, 40 nM
- Time to read-out: 72 h
- Measurement: 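HPV18 LCR reporter light per well, converted to plate-wise z-scores that exclude control wells, and averaged over triplicate plates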
- Direction: mean z-score and z-score: higher = stronger reporter signal, weaker E2 silencing
- Call rule: 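Mean z ≥ 2 together with z ≥ 2 in two or more of the three replicates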
Here is one part, drawn at random, of about 21,000 reagents tested. Over the whole deposit, 497 (2.4%) were called active. 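Higher z means weaker E2 silencing; only reporter increases were scored, and knock-downs that hurt cell survival may mask genuine repressor factors.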

Knock-down of SERPINA12 (GeneID 145264) came out at: mean z-score 0.52; z-score, replicate A = 0.46; z-score, replicate B = 1.03; z-score, replicate C = 0.07; inactive.
For MAMDC4 (GeneID 158056), the values are mean z-score -0.69; z-score, replicate A = -1.03; z-score, replicate B = -0.63; z-score, replicate C = -0.4; inactive.
PPIL2 (GeneID 23759) showed mean z-score 0.96; z-score, replicate A = 0.87; z-score, replicate B = 1.02; z-score, replicate C = 1; inactive.
H4C14 (GeneID 8370) showed mean z-score 0.61; z-score, replicate A = 0.61; z-score, replicate B = 0.63; z-score, replicate C = 0.59; inactive.
With knock-down of LOC389050 (retired record) (GeneID 389050) the results were mean z-score 1; z-score, replicate A = 0.81; z-score, replicate B = 1.14; z-score, replicate C = 1.04; inactive.
With knock-down of ACBD6 (GeneID 84320), the screen gave mean z-score -1.5; z-score, replicate A = -1.45; z-score, replicate B = -1.41; z-score, replicate C = -1.64; inactive.
Against WWP2 (GeneID 11060), the values are mean z-score -0.5; z-score, replicate A = -0.55; z-score, replicate B = -0.45; z-score, replicate C = -0.51; inactive.
Knock-down of ATP23 (GeneID 91419) resulted in: mean z-score -0.68; z-score, replicate A = -0.74; z-score, replicate B = -0.73; z-score, replicate C = -0.56; inactive.
Knock-down of TIGIT (GeneID 201633) came out at: mean z-score -0.97; z-score, replicate A = -1.22; z-score, replicate B = -0.72; z-score, replicate C = -0.97; inactive.
Depletion of PSMC3 (GeneID 5702) resulted in: mean z-score -0.7; z-score, replicate A = -0.81; z-score, replicate B = -0.78; z-score, replicate C = -0.51; inactive.
Against ATP6V1E1 (GeneID 529), the entry reads mean z-score -1; z-score, replicate A = -1.38; z-score, replicate B = -0.61; z-score, replicate C = -1; inactive.
LOC388065 (retired record) (GeneID 388065) scored mean z-score 0.36; z-score, replicate A = 0.5; z-score, replicate B = 0.15; z-score, replicate C = 0.43; inactive.
LOC399707 (retired record) (GeneID 399707) gave mean z-score -1.05; z-score, replicate A = -1.06; z-score, replicate B = -1.16; z-score, replicate C = -0.93; inactive.
KRT79 (GeneID 338785) showed mean z-score -0.44; z-score, replicate A = -0.23; z-score, replicate B = -0.57; z-score, replicate C = -0.54; inactive.
For ZRANB1 (GeneID 54764), the entry reads mean z-score -0.28; z-score, replicate A = -0.67; z-score, replicate B = -0.37; z-score, replicate C = 0.2; inactive.
After knock-down of GRP (GeneID 2922), the record shows mean z-score -0.53; z-score, replicate A = -0.54; z-score, replicate B = -0.43; z-score, replicate C = -0.62; inactive.
After knock-down of NR1H3 (GeneID 10062), the screen gave mean z-score -0.38; z-score, replicate A = -0.55; z-score, replicate B = -0.2; z-score, replicate C = -0.41; inactive.
Depletion of HEATR9 (GeneID 256957) came out at: mean z-score -0.18; z-score, replicate A = -0.42; z-score, replicate B = -0.09; z-score, replicate C = -0.03; inactive.
For STX10 (GeneID 8677), the values are mean z-score -0.23; z-score, replicate A = -0.12; z-score, replicate B = -0.33; z-score, replicate C = -0.24; inactive.
With knock-down of LOC392634 (retired record) (GeneID 392634) the results were mean z-score 0.43; z-score, replicate A = 0.52; z-score, replicate B = 0.57; z-score, replicate C = 0.21; inactive.
With knock-down of SNHG29 (GeneID 125144), the screen gave mean z-score -0.68; z-score, replicate A = -0.52; z-score, replicate B = -0.47; z-score, replicate C = -1.07; inactive.

Looked up above.
Value for STX10 (GeneID 8677) in “activity call”: inactive
Under “z-score, replicate C”, ZRANB1 (GeneID 54764) shows 0.2
Value of SNHG29 (GeneID 125144) in “z-score, replicate A”: -0.52
Under “activity call”, WWP2 (GeneID 11060) reads inactive
